Results of unrelated studies side by side (data: NIAID ChemDB).

Shared fields: tests in culture; organism: Mycobacterium tuberculosis

Blank or dashed fields: not listed here. A number after MIC or MFC names an inhibition level or a share of isolates. MIC bound comes from a single tested concentration. Percent inhibition refers to the dose given; in toxicity tests it is the harm to the cells. Two numbers with a dash give a range or band. Lines come from different laboratories, so protocols vary. Zone: diameter of growth inhibition.

compound,method,strain or isolate,measure,tested at,value
C=C1C[C@@H](OC(=O)CO)C2CCC[C@]3(CCC(=O)C23)C[C@@H]1O,resazurin,mc(^2)7000,MIC,-,>200 µg/mL
CN1CCCC(CN2c3ccccc3Sc3ccccc32)C1,BACTEC,H37Rv,MIC bound,-,>12.5 µg/mL
CNC(=S)N(c1ccc(Cl)c(Cl)c1)C1CCCCC1,visual reading,-,MIC,-,400 µg/mL
COc1c2c(cc3c1-c1c(cc4c(c1OC)OCO4)CC(C)C(C)C3)OCO2,BACTEC,H37Rv,MIC bound,-,>12.5 µg/mL
CCOC(=O)c1cc(-c2ccc(CO)cc2)on1,low oxygen,H37Rv,MIC,-,48.7 µM
FC(F)(F)c1cccc(Oc2ccc(Nc3ncnc4ccsc34)cc2)c1,luminescence,H37Rv,MIC50,-,>50 µM
CO[C@H]1/C=C/O[C@@]2(C)Oc3c(C)c(O)c4c(=O)c(c5oc6cc(N7CCN(CC(C)C)CC7)cc(=O)c6nc5c4c3=C2O)NC(=O)/C(C)=C\C=C\[C@H](C)[C@H](O)[C@@H](C)[C@@H](O)[C@@H](C)[C@H](OC(C)=O)[C@@H]1C,-,FUJII,MIC,-,0.002 µg/mL
CC(C)(C)OC(=O)N[C@@H](Cc1ccccc1)[C@H](O)C[C@H](Cc1ccccc1)N=Cc1ccc([N+](=O)[O-])o1,resazurin,ATTC 27294,MIC,-,6.15 µM
CCOC(=O)c1cc(CNc2cc(C)cc(C)c2)on1,resazurin,H37Rv,MIC,-,7 µM
O=[N+]([O-])c1ccc(CSc2ncn[nH]2)c([N+](=O)[O-])c1,-,My 331/88,MIC,-,62.5 µM
C[C@@H]1C[C@@]2(O[C@@H]2C)C(=O)O[C@@H]2CCN3CC=C(COC(=O)[C@]1(C)O)[C@H]23,BACTEC,H37Rv,MIC,-,≥12.8 µg/mL
CCOC(=O)c1cc(CN(C)c2ccc(C(F)(F)F)cc2)on1,low oxygen,H37Rv,MIC,-,6.4 µM
Cc1nnc2sc(=S)[nH]n12,BACTEC,H37Rv,MIC,-,128 µg/mL
COc1ccc2nc(Cl)c(C3C(C#N)=C(N)N(Nc4ccc(F)cc4)C4=C3C(=O)CC(C)(C)C4)cc2c1,agar,H37Rv,MIC,-,22 µg/mL
O=[N+]([O-])c1cn[nH]c1.[Cl][Pd][Cl].c1ccc(P(c2ccccc2)c2ccccc2)cc1,resazurin,H37Rv,MIC90,-,18.63 µM
FS(F)(F)(F)(F)c1ccc(CNc2ncnc3ccccc23)cc1,luminescence,H37Rv,MIC50,-,>40 µM
COC(=O)c1ccccc1S(=O)(=O)NC(=O)Nc1nc(C)cc(C)n1,-,T13704,MIC,-,1.6 µM
CCC(C)COC(=O)Nc1cccc(Cl)c1,BACTEC,H37Rv,MIC bound,-,≤12.5 µg/mL
CC(C)(C)c1ccc(CNC(=S)c2c(O)cc(Cl)cc2Cl)cc1,-,My 331/88,MIC,-,32 µg/mL
c1ccc2c(NCCN3CCOCC3)ncnc2c1,luminescence,H37Rv,MIC50,-,>20 µM
Cc1cc(C)[nH]n1.[Cl][Pd][Cl].c1ccc(P(c2ccccc2)c2ccccc2)cc1,resazurin,H37Rv,MIC90,-,>250 µg/mL
N[C@@H]1CONC1=O,-,-,MIC,-,20 µg/mL
CCN(CC)CCSCC(=O)O[C@H]1C/C(C)=C\C[C@@]23CCCC1C2C(=O)CC3,resazurin,mc(^2)7000,MIC,-,50 µg/mL
CCOC(=O)c1cc(-c2ccc(OC(F)(F)F)cc2)on1,low oxygen,H37Rv,MIC,-,17.6 µM
FC(F)(F)c1ccc(Oc2ccc(Nc3ncnc4[nH]ccc34)cc2)cc1,luminescence,H37Rv,MIC50,-,0.46 µM
CC(C)(c1cc(Cl)c(O)c(CN2CCOCC2)c1)c1cc(Cl)c(O)c(CN2CCOCC2)c1,resazurin,H37Rv,inhibition,6.25 µg/mL,-7%
COc1ccc2nc(Cl)c(C3C(C#N)=C(N)N(Nc4ccccc4)C4=C3C(=O)CC(C)(C)C4)cc2c1,agar,H37Rv,MIC,-,80 µg/mL
Cc1nc2c([N+](=O)[O-])c(N(C)C)c([N+](=O)[O-])cc2[nH]1,resazurin,H37Rv,MIC bound,-,>6.25 µg/mL
CC1(C)S[C@@H]2[C@H](NC(=O)C(C(=O)O)c3ccccc3)C(=O)N2[C@H]1C(=O)O,-,9 strains (MDR),MIC50,-,>256 µg/mL
Fc1ccc2c(Nc3ccc(N4CCN(c5ccc(C(F)(F)F)cn5)CC4)cc3)ncnc2c1,luminescence,H37Rv,MIC50,-,>20 µM
CCc1cc(C(N)=S)ccn1,visual reading,-,MIC,-,3.12 µg/mL
CO[C@H]1/C=C/O[C@@]2(C)Oc3c(C)c(O)c4c(O)c(c(/C=N/N5CCN(C)CC5)c(O)c4c3C2=O)NC(=O)/C(C)=C\C=C\[C@H](C)[C@H](O)[C@@H](C)[C@@H](O)[C@@H](C)[C@H](OC(C)=O)[C@@H]1C,-,ATCC35801,MIC,-,0.03 µM
CC(C)(C)OC(=O)N[C@@H](Cc1ccccc1)[C@H](O)C[C@H](Cc1ccccc1)N=Cc1ncc[nH]1,resazurin,ATTC 27294,MIC,-,13.4 µM
C=C1[C@@H]([C@@]2(C)C=CC(=O)C(C)(C)[C@@H]2CC(=O)OC)CC[C@@]2(C)[C@H](c3ccoc3)OC(=O)[C@H]3O[C@]132,BACTEC,H37Rv,inhibition,12.5 µg/mL,-15%
Fc1ccc2c(Nc3ccc(Br)cn3)ncnc2c1,luminescence,H37Rv,MIC50,-,>20 µM
CC[C@@H](CO)NCCN[C@@H](CC)CO,resazurin,ATTC 27294,MIC,-,15.9 µM
COC(=O)C1[C@@H](OC(=O)CC(CCCCCCCCCCC(C)C)OC(=O)CC(C)CC(=O)OC2OC(C)C(OC)C(OC)C2OC)CN(C)C([C@@H](OC2O[C@H](CN)[C@@H](O)[C@H]2O)C2OC(n3ccc(=O)[nH]c3=O)[C@H](O)[C@@H]2O)C(=O)N1C,-,Ravenel,MIC,-,6.25 µg/mL
CCn1cc(C(=O)O)c(=O)c2cc(Cl)c(-n3cccc3)cc21,BACTEC,H37Rv,inhibition,12.5 µg/mL,15%
N[C@@H](Cc1ccccc1)[C@H](O)C[C@H](Cc1ccccc1)N=Cc1ncc[nH]1,resazurin,ATTC 27294,MIC,-,>276.1 µM
COc1nc(C)nc(NC(=O)NS(=O)(=O)c2ccccc2Cl)n1,-,ATCC35801,MIC,-,125 µM
CC1=Nc2ccccc2S/C1=C(/C)NNC(=O)C(N)=O,BACTEC,H37Rv,MIC,-,≥12.5 µg/mL
CC(C)(C)OC(=O)N[C@@H](Cc1ccccc1)[C@H](O)C[C@@H](N)Cc1ccccc1,resazurin,ATTC 27294,MIC,-,130.1 µM
CC12C=CC(C)(C3C(=O)C4C(C(=O)C31)C1(C)C=CC4(C)S1=O)S2=O,resazurin,H37Rv,MIC bound,-,>6.25 µg/mL
Oc1ccccc1C(=S)NCc1ccc(F)cc1,-,My 331/88,MIC,-,0.5 µg/mL
Ic1cn[nH]c1.[Cl][Pd][Cl].c1ccc(P(c2ccccc2)c2ccccc2)cc1,resazurin,H37Rv,MIC90,-,7.61 µM
COc1ccc(O)c(C(=O)NCc2cccc(Cl)c2)c1,-,My 331/88,MIC,-,125 µg/mL
CNC(=S)N(c1ccc(F)c(Cl)c1)C(C)c1cccs1,visual reading,-,MIC,-,200 µg/mL
CO/N=C(\C(=O)N[C@@H]1C(=O)N2C(C(=O)O)=C(CSc3nc(=O)c(=O)[nH]n3C)CS[C@H]12)c1csc(N)n1,-,24 strains (drug-susceptible),MIC50,-,128 µg/mL
Fc1cc(Nc2ncnc3ccccc23)ccc1N1CCN(c2ccc(C(F)(F)F)cc2)CC1,luminescence,H37Rv,MIC50,-,>50 µM
CNC(=S)N(c1ccc(F)c(Cl)c1)C(C)C,visual reading,-,zone,1000 µg/mL,9.93 mm
Fc1ccc2c(Nc3ccc(Oc4ccccc4)cc3)ncnc2c1,luminescence,H37Rv,MIC50,-,>20 µM
CC(C)N(C(=S)Nc1ccccc1)c1ccc(Cl)c(Cl)c1,visual reading,-,zone,1000 µg/mL,11.92 mm
N#Cc1cccc(CSc2ncn[nH]2)c1,-,My 331/88,MIC,-,1000 µM
CCOC(=O)c1cc(CNc2cccc(OC)c2)on1,low oxygen,H37Rv,MIC,-,126 µM
COc1ccc(NN2C(N)=C(C#N)C(c3cc4cc(OC)ccc4nc3Cl)C3=C2CC(C)(C)CC3=O)cc1,agar,H37Rv,MIC,-,7 µg/mL
CCCCCCCC/C=C/CCCCCC1CCCC(C)N1,-,H37Rv,MIC,-,6.3 µg/mL
S=C(Nc1ccccc1)N(c1ccc(Cl)c(Cl)c1)C1CCCCC1,visual reading,-,zone,1000 µg/mL,13.93 mm
FC(F)(F)c1ccc(Oc2ccccc2Nc2ncnc3ccccc23)cc1,luminescence,H37Rv,MIC50,-,>50 µM
CCC(C)N(C(=S)NC)c1ccc(F)c(Cl)c1,visual reading,-,zone,1000 µg/mL,8.02 mm
COc1ccc2c(Nc3ccc(Oc4ccc(C(F)(F)F)cc4)cc3)ncnc2c1,luminescence,H37Rv,MIC50,-,>20 µM
COc1cccc2c1C(=O)c1c(O)c3c(c(O)c1C2=O)C[C@@](O)(/C(C)=N/NC(=O)CO)CC3OC1CC(N)C(O)C(C)O1.Cl,BACTEC,H37Rv,inhibition,12.5 µg/mL,99%
O=[N+]([O-])c1cccc(CSc2ncn[nH]2)c1,-,My 331/88,MIC,-,1000 µM
Cc1ccc(CNC(=S)c2cc(C)ccc2O)cc1,-,My 331/88,MIC,-,0.125 µg/mL
O=S(=O)(c1ccc(OC(F)(F)F)cc1)C1CCN(c2ccc(Nc3ncnc4cc(F)ccc34)cc2)CC1,luminescence,H37Rv,MIC50,-,>50 µM
CC1(C)CC(=O)C2=C(C1)N(Nc1ccc(Br)cc1)C(N)=C(C#N)C2c1cc2cc(Cl)ccc2nc1Cl,agar,H37Rv,MIC,-,85 µg/mL
S=P1(Oc2ccccc2)Nc2cc(Cl)c(Cl)cc2N1,BACTEC,H37Rv,inhibition,12.5 µg/mL,32%
CCOC(=O)c1cc(CNc2ccc(OC(F)(F)F)cc2)on1,low oxygen,H37Rv,MIC,-,9.8 µM
C=C[C@]1(C)C[C@@H](OC(=O)CSCCN(CC)CC)[C@]2(C)[C@H](C)CC[C@]3(CCC(=O)[C@H]32)[C@@H](C)[C@@H]1O,resazurin,mc(^2)7000,MIC,-,12–25 µg/mL
COc1cc(CCC(C)=O)ccc1OC(=O)c1c(-c2c(F)cccc2Cl)noc1C,resazurin,H37Rv,inhibition,6.25 µg/mL,-11%
COc1ccc2nc(C)cc(Nc3ccc(Oc4ccc(C(F)(F)F)cc4)cc3)c2c1,luminescence,H37Rv,MIC50,-,>20 µM
CC1CCC2(CCCO2)O1,BACTEC,H37Rv,MIC bound,-,>12.5 µg/mL
CCOC(=O)c1cc(CNc2cc(C(F)(F)F)nc3c(C(F)(F)F)cccc23)on1,resazurin,H37Rv,MIC,-,6.9 µM
O=C(CCCC(=O)NNC(=S)Nc1ccccc1Cl)NNC(=S)Nc1ccccc1Cl,BACTEC,H37Rv,MIC bound,-,>12.5 µg/mL
FC(F)(F)Oc1ccc(Nc2ncnc3ccccc23)cc1,luminescence,H37Rv,MIC50,-,>50 µM
COc1ccc(C(=O)Cc2nc3nnc(NC(=O)Nc4ccc(Cl)cc4)n3nc2CC(=O)c2ccc(OC)cc2)cc1,BACTEC,H37Rv,inhibition,12.5 µg/mL,27%
COc1ccc2c(NCCc3ccc(OC(F)(F)F)cc3)ncnc2c1,luminescence,H37Rv,MIC50,-,>20 µM
Cn1c2ccccc2c(=O)c2c(O)cc3c(c21)N=CC(C)(C)O3.O=C(O)C(F)(F)F,BACTEC,H37Rv,MIC,-,≥12.5 µg/mL
FC(F)(F)c1ccc(CNc2ncnc3ccsc23)cc1,luminescence,H37Rv,MIC50,-,>50 µM
COC(=O)C1C(O)C(C)C(O)C(C)(O)C=C(C)C2=C3C(=C(C)C(=O)c4c(O)c(c(C)c(OC(C)=O)c43)NC(=O)/C(C)=C/C=C\C(C)C3OC(C)(C)OC1C3C)OCO2,BACTEC,H37Rv,inhibition,12.5 µg/mL,42%
Cc1nc(Nc2ccc(Oc3ccc(OC(F)(F)F)cc3)cc2)c2ccc(F)cc2n1,luminescence,H37Rv,MIC50,-,>20 µM
Fc1cccc(CSc2ncn[nH]2)c1,-,My 331/88,MIC,-,500 µM

The first 10 rows once more:

compound | method | strain or isolate | measure | tested at | value
C=C1C[C@@H](OC(=O)CO)C2CCC[C@]3(CCC(=O)C23)C[C@@H]1O | resazurin | mc(^2)7000 | MIC | - | >200 µg/mL
CN1CCCC(CN2c3ccccc3Sc3ccccc32)C1 | BACTEC | H37Rv | MIC bound | - | >12.5 µg/mL
CNC(=S)N(c1ccc(Cl)c(Cl)c1)C1CCCCC1 | visual reading | - | MIC | - | 400 µg/mL
COc1c2c(cc3c1-c1c(cc4c(c1OC)OCO4)CC(C)C(C)C3)OCO2 | BACTEC | H37Rv | MIC bound | - | >12.5 µg/mL
CCOC(=O)c1cc(-c2ccc(CO)cc2)on1 | low oxygen | H37Rv | MIC | - | 48.7 µM
FC(F)(F)c1cccc(Oc2ccc(Nc3ncnc4ccsc34)cc2)c1 | luminescence | H37Rv | MIC50 | - | >50 µM
CO[C@H]1/C=C/O[C@@]2(C)Oc3c(C)c(O)c4c(=O)c(c5oc6cc(N7CCN(CC(C)C)CC7)cc(=O)c6nc5c4c3=C2O)NC(=O)/C(C)=C\C=C\[C@H](C)[C@H](O)[C@@H](C)[C@@H](O)[C@@H](C)[C@H](OC(C)=O)[C@@H]1C | - | FUJII | MIC | - | 0.002 µg/mL
CC(C)(C)OC(=O)N[C@@H](Cc1ccccc1)[C@H](O)C[C@H](Cc1ccccc1)N=Cc1ccc([N+](=O)[O-])o1 | resazurin | ATTC 27294 | MIC | - | 6.15 µM
CCOC(=O)c1cc(CNc2cc(C)cc(C)c2)on1 | resazurin | H37Rv | MIC | - | 7 µM
O=[N+]([O-])c1ccc(CSc2ncn[nH]2)c([N+](=O)[O-])c1 | - | My 331/88 | MIC | - | 62.5 µM